Laboratory results taken from article PMC8489083.

System: ArcA-P (phosphorylated ArcA-His6)
Assay: EMSA
Conditions: 0-2.0 ug, residues 1-238, probe letters rebuilt from the primers and the genome

“CGTACTTCCCGGCTAAGCCGGGAGCTCATCGCTTTTCAGTATGATATTACGTTATAAACGGAACTGGTCACCCAGATATACCCGTTTAACATGTTCATTTTCCAGAATCTCTGCCGGAGTCCCATGTGCGATCATATGTCCTTGACTTACGATGTAGGCATGCTCGCACACATCCAACGTTTCCCGCACATTGTGGTCGGTGATCAGAACGCCCAGCCCGCTATCACGCAGGTGTTTAATGATGTTCTTAATGTCGATAACCGAAATCGGGTCTACGCCGGCAAAAGGCTCATCCAGCAGGATAAATTTAGGATTGGCGGCTAGGGCGCGGGCAATTTCTACTCGGCGAC (double strand) [rpoN promoter]”: binds (10 mM MgCl2, EMSA: 50 ng DNA, 100 mM Tris-HCl pH 7.5, 10 mM MgCl2, 2 mM DTT, 100 mM KCl, 10% glycerol, 30 min at 37 C, 6% PAGE in 0.5x TBE, GelRed stain, recombinant protein).

“GGTAATAGTTTGCCGTCCCGGTAAGGTGGTTTCCAAATCGGTAGCACAGCGTTCAAATTTGAGCCGTGGATCGAGCGGCGTAACCCTAACTTGATGCTGGAGCGTGTTTTCTGACGGTAACTGGCTGATCACAAAGGATTCTGCGGCTTGCGTAATGCTCGACGGCTCCTGATAGGTCGGTTCAGCATTGGCGGCCATGCCATTTTCGTTTAAGAAAAGGCAGAATATGCCGATAAACAAACCAATAGGGCGAGTCGCCTTGGACACTGGCGTTGAGAAAAACACAAAACGTCTCCTGTTATGCAAAATACCTCTGATATCCTAAGGGGTATACGAGTTATAAGAAACACTTTAAATACCCCTGGGAGTAGCACGTTA (double strand) [cheV promoter]”: binds (10 mM MgCl2, recombinant protein).

For at least one entry, the source does not settle the construct or the ends of the probe.
